Measured values from several laboratories, pooled; numbers as filed in NIAID ChemDB.

Shared fields: whole-cell or culture tests; species: HIV-2; read-out: EC50

Conditions beyond the fields shown may differ between rows. Blank or dashed fields: not listed here. ECn is the concentration giving n% inhibition of infection, replication or growth. a–b is a range or a potency band.

compound | strain | read by | cell line | result
Cc1cn([C@H]2C=C[C@@H](CO)O2)c(=O)[nH]c1=O |  |  | CEM + CEM TK- | >10 µM
Cc1cccc(O)c1O | ROD | cytopathic effect / MTT | MT-4 | 86 µg/mL
CC(=O)OCCOCn1cc(Cn2cc(Br)c(=O)[nH]c2=O)nn1 | ROD | cytopathic effect | MT-4 | >100 µg/mL
C=CCOC(=O)OC[C@H]1O[C@@H](n2cc(C)c(=O)n(C)c2=O)[C@H](O[Si](C)(C)C(C)(C)C)C12OS(=O)(=O)C=C2N |  |  | CEM + CEM/0 | >10 µM
Clc1ccc(-c2nnc3n2N=C(c2ccccc2)CS3)cc1Cl | ROD | MTT | MT-4 | >1.97 µg/mL
Oc1cccc(O)c1O | ROD | cytopathic effect / MTT | MT-4 | 8 µg/mL
CCc1nc([N+](=O)[O-])c(N2CCN(C(=O)CSC[C@@H](C)C(=O)N3CCC[C@@H]3C(=O)O)CC2)n1Cc1ccccc1 | ROD | MTT | MT-4 | >2.23 µg/mL
CCOC(=O)C(C(=O)OCC)=C1NC(=O)N([C@H]2C[C@H](N=[N+]=[N-])[C@@H](CO)O2)C=C1C | ROD |  | CEM | 40 µM
C[C@H](CS)C(=O)N1CCC[C@@H]1c1nc2ccccc2s1 | ROD | MTT | MT-4 | >15.8 µg/mL
O=C(O)Cc1ccc(O)c(O)c1 | ROD | syncytia | MOLT-4 | 4 µg/mL
CC(=O)OCCOCn1cc(Cn2cc(F)c(=O)[nH]c2=O)nn1 | ROD | cytopathic effect | MT-4 | >100 µg/mL
NC1=Nn2c(nnc2-c2ccc(Cl)c(Cl)c2)SC1 | ROD | MTT | MT-4 | >2.7 µg/mL
Nc1nc(N2CCCCC2)c2ncn(CCOCP(=O)(O)O)c2n1 | ROD | cytopathic effect / MTT | CEM | >4 µg/mL
[N-]=[N+]=N[C@H]1C[C@H](n2cc(CCON)c(=O)[nH]c2=O)O[C@@H]1CO | ROD |  | CEM | >300 µM
Clc1ccc(-c2nnc3sc(-c4ccc[nH]4)nn23)cc1Cl | ROD | MTT | MT-4 | >68.48 µg/mL
[N-]=[N+]=N[C@H]1C[C@@H](CO)O[C@H]1n1cnc2c(NC3CCCCC3)ncnc21 | ROD |  | MT-4 | >125 µg/mL
O=C1c2ccccc2N(Cc2ccccc2)S(=O)(=O)N1Cc1ccccc1Cl | ROD | cytopathic effect | MT-4 | 4–11 µM
C[C@H](CSCCN1C(=O)c2ccccc2C1=O)C(=O)N1CCC[C@@H]1C(=O)O | ROD | MTT | MT-4 | >22.43 µg/mL
O=c1ccn(Cc2cn(COCCO)nn2)c(=O)[nH]1 | ROD | cytopathic effect | MT-4 | >100 µg/mL
O=C(O)c1ccc(-c2c3nc(c(-c4ccc(C(=O)O)cc4)c4ccc([nH]4)c(-c4ccc(C(=O)O)cc4)c4nc(c(-c5ccc(C(=O)O)cc5)c5ccc2[nH]5)C=C4)C=C3)cc1 | ROD | syncytia | HuT-78 + HUT 78 | 59 µg/mL
Oc1ccc(-c2nnc3sc(-c4cnccn4)nn23)c(Cl)c1Cl | ROD | MTT | MT-4 | >2.11 µg/mL
O=C(O)/C=C/c1ccc(O)c(O)c1 | ROD | syncytia | MOLT-4 | 7 µg/mL
C[C@H](Cn1cnc2c(NCCCC3CCCCC3)ncnc21)OCP(=O)(O)O | ROD | cytopathic effect / MTT | CEM | 9.5 ± 3.5 µg/mL
O=C(O)CCc1ccc(O)c(O)c1 | ROD | syncytia | MOLT-4 | 10 µg/mL
CC(C)(C)[Si](C)(C)OC[C@H]1O[C@@H](n2ccc(=O)[nH]c2=O)[C@H](O[Si](C)(C)C(C)(C)C)[C@@]12O[C@H]2C(=O)NN | ROD | cytopathic effect / trypan blue | MT-4 | >2 µM
C=C1O[C@@H](n2cc(C)c(=O)n(C)c2=O)[C@H](O[Si](C)(C)C(C)(C)C)[C@]12OS(=O)(=O)C=C2N |  |  | CEM + CEM/0 | >50 µM
Cc1cc(C)c(S(N)(=O)=O)c(C)c1-c1c2nc(c(-c3c(C)cc(C)c(S(N)(=O)=O)c3C)c3ccc([nH]3)c(-c3c(C)cc(C)c(S(N)(=O)=O)c3C)c3nc(c(-c4c(C)cc(C)c(S(N)(=O)=O)c4C)c4ccc1[nH]4)C=C3)C=C2 | ROD | cytopathic effect / MTT | MT-4 | >80 µg/mL
COC(=O)[C@@H]1O[C@]12[C@@H](CO[Si](C)(C)C(C)(C)C)O[C@@H](n1ccc(=O)[nH]c1=O)[C@@H]2O[Si](C)(C)C(C)(C)C | ROD | cytopathic effect / trypan blue | MT-4 | >10 µM
Oc1ccc(-c2nn3c(-c4ccc(O)c(Cl)c4Cl)nnc3s2)c(Cl)c1Cl | ROD | MTT | MT-4 | >67.8 µg/mL
COC(=O)/C=C1/[C@@H](O[Si](C)(C)C(C)(C)C)[C@H](n2cc(C)c(=O)[nH]c2=O)O[C@@H]1CO[Si](C)(C)C(C)(C)C | ROD | cytopathic effect / trypan blue | MT-4 | >2 µM
CN1OCc2cn([C@@H]3O[C@H](CO)[C@H]4OC(C)(C)O[C@H]43)c(=O)nc21 | ROD |  | CEM | >300 µM
COC(=O)CC(OP(=O)(OC[C@@H]1C=C[C@H](n2cc(C)c(=O)[nH]c2=O)O1)OC(CC(=O)OC)c1ccc(OC(C)=O)cc1)c1ccc(OC(C)=O)cc1 |  |  | CEM + CEM TK- | 0.2 µM
Oc1ccc(-c2nnc3sc(-c4ccc(O)c(Cl)c4Cl)nn23)cc1Br | ROD | MTT | MT-4 | >4.12 µg/mL
CN(C)c1ncnc2c1ncn2[C@@H]1O[C@H](CO)C[C@@H]1N=[N+]=[N-] | ROD |  | MT-4 | >81 µg/mL
CC(C)(C)[Si](C)(C)OC[C@H]1O[C@@H](n2ccc(=O)[nH]c2=O)[C@H](O[Si](C)(C)C(C)(C)C)C1(O)[C@H](N=[N+]=[N-])C(N)=O | ROD | cytopathic effect / trypan blue | MT-4 | >10 µM
Nc1ccc(-c2nn3c(-c4ccc(Cl)c(Cl)c4)nnc3s2)cc1 | ROD | MTT | MT-4 | >19.61 µg/mL
O=C1c2ccccc2N(Cc2ccccc2)S(=O)(=O)N1Cc1ccc(Cl)cc1 | ROD | cytopathic effect | MT-4 | ≥50 µM
C[C@H](CSCC(N)=O)C(=O)N1CCC[C@@H]1C(=O)O | ROD | MTT | MT-4 | >3.12 µg/mL
Cc1cn([C@@H]2O[C@H](COC(=O)C(C)C)C3(OS(=O)(=O)C=C3N)[C@H]2O[Si](C)(C)C(C)(C)C)c(=O)n(C)c1=O |  |  | MT-4 | >50 µM
O=C(O)Cc1cc(O)ccc1O | ROD | syncytia | MOLT-4 | 4 µg/mL
C#CCn1cc(I)c(=O)[nH]c1=O | ROD | cytopathic effect | MT-4 | >100 µg/mL
Nc1nc(NC2CCCCC2)c2ncn(CCOCP(=O)(O)O)c2n1 | ROD | cytopathic effect / MTT | MT-4 | 4.8 µg/mL
Nc1ccc(-c2n[nH]c(=S)n2N)cc1 | ROD | MTT | MT-4 | >12 µg/mL
Nc1nc(N2CCCC2)c2ncn(CCOCP(=O)(O)O)c2n1 | ROD | cytopathic effect / MTT | MT-4 | 2 µg/mL
Cc1cn([C@@H]2O[C@H](CN3CCN(C)CC3)C3(OS(=O)(=O)C=C3N)[C@H]2O[Si](C)(C)C(C)(C)C)c(=O)n(C)c1=O |  |  | CEM + CEM/0 | >10 µM
Clc1ccc(-c2nnc3sc(-c4cnccn4)nn23)cc1Cl | ROD | MTT | MT-4 | >2.11 µg/mL
CC(=O)OC[C@H]1O[C@@H](n2cc(C)c(=O)n(C)c2=O)[C@H](O[Si](C)(C)C(C)(C)C)C12OS(=O)(=O)C=C2N |  |  | MT-4 | >50 µM
C#CCn1cc(F)c(=O)[nH]c1=O | ROD | cytopathic effect | MT-4 | >100 µg/mL
O=C1c2ccccc2N(COCc2ccccc2)S(=O)(=O)N1COCc1ccccc1 | ROD | cytopathic effect | MT-4 | >8 µM
C=CCNc1nc(N)nc2c1ncn2CCOCP(=O)(O)O | ROD | cytopathic effect / MTT | CEM | >0.032 µg/mL
CCOC(=O)C1=C2NC(=O)N([C@H]3C[C@H](N=[N+]=[N-])[C@@H](CO)O3)C=C2COC1=O | ROD |  | CEM | >300 µM
O=S1(=O)N=C(OCc2ccc(Cl)cc2)c2ccccc2N1Cc1ccc(Cl)cc1 | ROD | cytopathic effect | MT-4 | >10 µM

Repeating the final 7 entries:

compound	strain	read by	cell line	result
Clc1ccc(-c2nnc3sc(-c4cnccn4)nn23)cc1Cl	ROD	MTT	MT-4	>2.11 µg/mL
CC(=O)OC[C@H]1O[C@@H](n2cc(C)c(=O)n(C)c2=O)[C@H](O[Si](C)(C)C(C)(C)C)C12OS(=O)(=O)C=C2N			MT-4	>50 µM
C#CCn1cc(F)c(=O)[nH]c1=O	ROD	cytopathic effect	MT-4	>100 µg/mL
O=C1c2ccccc2N(COCc2ccccc2)S(=O)(=O)N1COCc1ccccc1	ROD	cytopathic effect	MT-4	>8 µM
C=CCNc1nc(N)nc2c1ncn2CCOCP(=O)(O)O	ROD	cytopathic effect / MTT	CEM	>0.032 µg/mL
CCOC(=O)C1=C2NC(=O)N([C@H]3C[C@H](N=[N+]=[N-])[C@@H](CO)O3)C=C2COC1=O	ROD		CEM	>300 µM
O=S1(=O)N=C(OCc2ccc(Cl)cc2)c2ccccc2N1Cc1ccc(Cl)cc1	ROD	cytopathic effect	MT-4	>10 µM